Data published in publication PMC8445433, “Broadly directed SARS-CoV-2-specific CD4+ T cell response includes frequently detected peptide specificities within the membrane and nucleoprotein in patients with acute and resolved COVID-19” (PLoS Pathogens, 2021).
pIC50: −log10 of the molar value.

Assays:
Assay in all cases: biochemical
[1] = molecular target: DQA1*05:01 DQB1*02:01 (Homo sapiens, UniProt P01909+P01920, A45G/A70V/D89A/E106A/E77G/E98D/H199R/L107V/N214S/P84L/P87L/T103K/T109R/T172A/T60S/V78E/V99I/Y58L/Y62S/Y69I/Y79F)
[2] = molecular target: DQA1*01:02 DQB1*06:02 (Homo sapiens, UniProt P01909+P01920, A157G/A45G/C70R/E118A/E183D/E77G/F83G/G63E/H151Q/H199R/H252R/H253Q/I129T/I235V/I88M/INS77G/K197Q/L117V/L119F/L178F/L71W/L74F/L85Q/L91A/L98M/N214S/P87R/Q116E/Q76K/R102G/R240Q/R75S/R78G/S102Y/S185I/S41F/S97I/T121G/T122I/T172A/T86R/V229M/V68A/V73E/Y34C/Y41F/Y58L); assay type: binding; conditions: read-out: IC50 DQA1*01:02 DQB1*06:02
[3] = molecular target: DQA1*01:01 DQB1*05:01 (Homo sapiens, UniProt P01909+P01920, A157S/A45G/A70V/C70R/D89V/E106S/E118A/E183D/E77G/F83G/G63E/H151Q/H199R/H252R/H253Q/I129T/I235V/I88M/INS77G/K197Q/L107V/L117V/L119Y/L178F/L71W/L74F/L85Q/L91A/L98M/M46L/N214S/P87R/Q116E/Q256R/Q57E/Q76K/R102G/R240Q/R75S/R78G/S102Y/S185I/S41F/S97I/T103A/T109R/T121G/T122I/T172A/T86R/V148I/V68A/V73E/Y34C/Y58G/Y62H); assay type: binding; conditions: read-out: IC50 DQA1*01:01 DQB1*05:01
[4] = molecular target: DQA1*03:01 DQB1*03:02 (Homo sapiens, UniProt P01909+P01920, A209T/A45G/C70Q/D89A/DUP78-78/E183D/E77G/F237L/G63E/H199R/I129T/K197E/L178F/L74F/L98V/Q57E/Q76R/S185I/S97I/T217I/T49S/V73L/Y58L); assay type: binding; conditions: read-out: IC50 DQA1*03:01 DQB1*03:02

In the case of `CC(C)C[C@H](NC(=O)[C@H](CC(N)=O)NC(=O)[C@H](CCCCN)NC(=O)[C@@H](NC(=O)[C@H](CCCNC(=N)N)NC(=O)[C@H](CO)NC(=O)[C@H](Cc1ccc(O)cc1)NC(=O)[C@@H](NC(=O)[C@H](Cc1ccc(O)cc1)NC(=O)[C@H](Cc1ccccc1)NC(=O)[C@H](CO)NC(=O)[C@@H]1CCCN1C(=O)[C@H](CCCCN)NC(=O)[C@@H](NC(=O)[C@@H](N)CC(C)C)C(C)C)C(C)C)C(C)C)C(=O)O` [Env_11], the pIC50 [1] was less than 4.40, the pIC50 [2] was 4.61 and the pIC50 [3] was less than 4.40. It also gave a pIC50 [4] of less than 4.40.

Molecule `CC[C@H](C)[C@H](NC(=O)[C@H](CCCNC(=N)N)NC(=O)[C@H](CC(C)C)NC(=O)[C@H](Cc1c[nH]cn1)NC(=O)CNC(=O)[C@@H](N)CCCNC(=N)N)C(=O)N[C@@H](C)C(=O)NCC(=O)N[C@@H](Cc1c[nH]cn1)C(=O)N[C@@H](Cc1c[nH]cn1)C(=O)N[C@@H](CC(C)C)C(=O)NCC(=O)N[C@@H](CCCNC(=N)N)C(=O)N[C@@H](CS)C(=O)N[C@@H](CC(=O)O)C(=O)O` [Mem_30] has a pIC50 [1] of less than 4.40, a pIC50 [2] of less than 4.40 and a pIC50 [3] of 4.42. For the same molecule, the pIC50 [4] was less than 4.40.

Work on `CC[C@H](C)[C@H](NC(=O)[C@H](CCC(=O)O)NC(=O)[C@@H](N)CCCCN)C(=O)N[C@H](C(=O)N[C@H](C(=O)N[C@@H](C)C(=O)N[C@H](C(=O)N[C@@H](CO)C(=O)N[C@@H](CCCNC(=N)N)C(=O)N[C@H](C(=O)N[C@@H](CC(C)C)C(=O)N[C@@H](CO)C(=O)N[C@@H](Cc1ccc(O)cc1)C(=O)N[C@@H](Cc1ccc(O)cc1)C(=O)N[C@@H](CCCCN)C(=O)O)[C@@H](C)O)[C@@H](C)O)C(C)C)[C@@H](C)O` [Mem_34] yielded a pIC50 [1] of 4.87, a pIC50 [2] of 5.74 and a pIC50 [3] of less than 4.40. For the same molecule, the pIC50 [4] was 4.76.

With `CC(C)C[C@H](NC(=O)[C@H](C)NC(=O)[C@@H](NC(=O)[C@H](Cc1ccccc1)NC(=O)[C@H](Cc1c[nH]c2ccccc12)NC(=O)[C@@H](N)CO)[C@@H](C)O)C(=O)N[C@H](C(=O)N[C@@H](CCC(N)=O)C(=O)N[C@@H](Cc1c[nH]cn1)C(=O)NCC(=O)N[C@@H](CCCCN)C(=O)N[C@@H](CCC(=O)O)C(=O)N[C@@H](CC(=O)O)C(=O)N[C@@H](CC(C)C)C(=O)N[C@@H](CCCCN)C(=O)O)[C@@H](C)O` [Ncl_11] the pIC50 [1] was 4.52, the pIC50 [2] was 6.02 and the pIC50 [3] was less than 4.40. It also gave a pIC50 [4] of 4.70.

With `CC(C)C[C@H](NC(=O)[C@H](Cc1ccc(O)cc1)NC(=O)[C@H](Cc1ccc(O)cc1)NC(=O)[C@H](Cc1ccccc1)NC(=O)[C@H](Cc1ccc(O)cc1)NC(=O)[C@H](Cc1c[nH]c2ccccc12)NC(=O)[C@H](CCCNC(=N)N)NC(=O)[C@@H]1CCCN1)C(=O)NCC(=O)N[C@H](C(=O)NCC(=O)N1CCC[C@H]1C(=O)N[C@@H](CCC(=O)O)C(=O)N[C@@H](C)C(=O)NCC(=O)O)[C@@H](C)O` [Ncl_22] the pIC50 [1] was 7.10, the pIC50 [2] was 5.10 and the pIC50 [3] was 5.65. It also gave a pIC50 [4] of 6.38.

Molecule `CC[C@H](C)[C@H](NC(=O)CNC(=O)[C@H](CC(=O)O)NC(=O)[C@H](CCCCN)NC(=O)[C@H](CC(N)=O)NC(=O)[C@H](C)NC(=O)CNC(=O)[C@H](Cc1ccc(O)cc1)NC(=O)[C@@H]1CCCN1C(=O)[C@@H](N)CC(C)C)C(=O)N[C@H](C(=O)N[C@@H](Cc1c[nH]c2ccccc12)C(=O)N[C@H](C(=O)N[C@@H](C)C(=O)N[C@H](C(=O)O)[C@@H](C)O)C(C)C)[C@@H](C)CC` [Ncl_25] has a pIC50 [1] of 4.93, a pIC50 [2] of 6.69 and a pIC50 [3] of less than 4.40. The pIC50 [4] was 5.42.

`CC[C@H](C)[C@H](NC(=O)CNC(=O)[C@H](CC(=O)O)NC(=O)[C@H](CCCCN)NC(=O)[C@@H](N)CC(N)=O)C(=O)N[C@H](C(=O)N[C@@H](Cc1c[nH]c2ccccc12)C(=O)N[C@H](C(=O)N[C@@H](C)C(=O)N[C@H](C(=O)N[C@@H](CCC(=O)O)C(=O)NCC(=O)N[C@@H](C)C(=O)N[C@@H](CC(C)C)C(=O)N[C@@H](CC(N)=O)C(=O)O)[C@@H](C)O)C(C)C)[C@@H](C)CC` [Ncl_26] was tested, and the pIC50 [1] was 6.37, the pIC50 [2] was 5.58 and the pIC50 [3] was less than 4.40. It also gave a pIC50 [4] of 6.99.

With `CC(C)C[C@H](NC(=O)[C@H](CCC(N)=O)NC(=O)[C@H](CC(N)=O)NC(=O)[C@H](CC(C)C)NC(=O)[C@H](CCCNC(=N)N)NC(=O)[C@H](CC(=O)O)NC(=O)[C@H](CC(C)C)NC(=O)[C@H](CC(C)C)NC(=O)[C@H](CC(C)C)NC(=O)[C@H](CC(C)C)NC(=O)[C@H](C)NC(=O)[C@H](CC(C)C)NC(=O)[C@H](C)NC(=O)[C@H](C)NC(=O)[C@@H](N)CC(=O)O)C(=O)O` [Ncl_44] the pIC50 [1] was 5.60, the pIC50 [2] was 5.60 and the pIC50 [3] was 5.07. The pIC50 [4] was 6.07.

`CSCC[C@H](NC(=O)[C@H](CCCCN)NC(=O)[C@H](CO)NC(=O)[C@H](CCC(=O)O)NC(=O)[C@H](CC(C)C)NC(=O)[C@H](CCC(N)=O)NC(=O)[C@H](CC(N)=O)NC(=O)[C@H](CC(C)C)NC(=O)[C@H](CCCNC(=N)N)NC(=O)[C@H](CC(=O)O)NC(=O)[C@H](CC(C)C)NC(=O)[C@H](CC(C)C)NC(=O)[C@H](CC(C)C)NC(=O)[C@@H](N)CC(C)C)C(=O)N[C@@H](CO)C(=O)O` [Ncl_45] showed a pIC50 [1] of 5.48, a pIC50 [2] of 5.09 and a pIC50 [3] of 4.64. It also gave a pIC50 [4] of 4.92.

`CC[C@H](C)[C@H](NC(=O)[C@H](Cc1c[nH]cn1)NC(=O)[C@H](CCCCN)NC(=O)[C@H](CC(N)=O)NC(=O)[C@H](CC(C)C)NC(=O)[C@H](CC(C)C)NC(=O)[C@@H](NC(=O)[C@@H](NC(=O)[C@H](CCC(N)=O)NC(=O)[C@H](CC(=O)O)NC(=O)[C@H](CCCCN)NC(=O)[C@@H](N)Cc1ccccc1)C(C)C)[C@@H](C)CC)C(=O)N[C@@H](CC(=O)O)C(=O)N[C@@H](C)C(=O)N[C@@H](Cc1ccc(O)cc1)C(=O)O` [Ncl_70] gave a pIC50 [1] of 4.51, a pIC50 [2] of 5.07 and a pIC50 [3] of 5.22. The pIC50 [4] was 5.04.

`CC[C@H](C)[C@H](NC(=O)[C@H](CCC(N)=O)NC(=O)[C@H](CC(=O)O)NC(=O)[C@@H](N)CC(=O)O)C(=O)NCC(=O)N[C@@H](Cc1ccc(O)cc1)C(=O)N[C@@H](Cc1ccc(O)cc1)C(=O)N[C@@H](CCCNC(=N)N)C(=O)N[C@@H](CCCNC(=N)N)C(=O)N[C@@H](C)C(=O)N[C@H](C(=O)N[C@@H](CCCNC(=N)N)C(=O)N[C@@H](CCCNC(=N)N)C(=O)N[C@H](C(=O)N[C@@H](CCCNC(=N)N)C(=O)O)[C@@H](C)CC)[C@@H](C)O` [Ncl_P17] showed a pIC50 [1] of less than 4.40, a pIC50 [2] of less than 4.40 and a pIC50 [3] of less than 4.40. The pIC50 [4] was less than 4.40.

`CC[C@H](C)[C@H](NC(=O)[C@H](CCCNC(=N)N)NC(=O)[C@H](CCCNC(=N)N)NC(=O)[C@@H](NC(=O)[C@H](C)NC(=O)[C@H](CCCNC(=N)N)NC(=O)[C@H](CCCNC(=N)N)NC(=O)[C@H](Cc1ccc(O)cc1)NC(=O)[C@@H](N)Cc1ccc(O)cc1)[C@@H](C)O)C(=O)N[C@@H](CCCNC(=N)N)C(=O)NCC(=O)NCC(=O)N[C@@H](CC(=O)O)C(=O)NCC(=O)N[C@@H](CCCCN)C(=O)O` [Ncl_P18] showed a pIC50 [1] of less than 4.40, a pIC50 [2] of less than 4.40 and a pIC50 [3] of less than 4.40. For the same molecule, the pIC50 [4] was less than 4.40.
